A mixed list of measured activities; the numbers were collected in NIAID ChemDB.

Common to all: enzyme or target tests; species: HIV-1; protein: Reverse transcriptase; read-out: inhibition

Percent inhibition refers to the dose given; in toxicity tests it is the harm to the cells. An empty or dashed field is not shown. Conditions beyond the fields shown may differ between rows.

smiles | tested at | changes | read by | strain or isolate | value
CC(C)=CC[C@H]1C[C@]2(C[C@H]3CCC(C)(C)C=C3C)C(=O)C3=C(OC(C)(C)CC3)[C@@](C(=O)c3ccccc3)(C2=O)C1(C)C | 200 µg/mL | - | RT activity / radiometric | - | 74.29%
CC(C)=CCc1c2c(c(O)c3c1O[C@@]14C5C[C@@H](C(=O)[C@@]1(C/C=C(/C)C(=O)O)OC5(C)C)C1OC14C3=O)C=CC(C)(C)O2 | 200 µg/mL | - | nucleotide incorporation / radiometric | - | 86.7%
O=C1CSC(c2c(F)cccc2F)N1n1cnnc1 | 10 µg/mL | - | RT activity / ELISA / absorbance | - | 10.53%
C/C(=C\C=C\C(C)[C@H]1CC[C@@]2(C)[C@@H]3CC[C@H]4C(C)(C)C(=O)CC[C@]4(C)C3=CC[C@]12C)C(=O)O | 200 µg/mL | - | RT activity / radiometric | - | -46.6%
Cc1cc(C)nc(N2C(=O)CSC2c2c(Cl)ncnc2Cl)n1 | 100 µg/mL | - | RT activity / ELISA / absorbance | - | 79.97%
CC[C@H](C)[C@H]1NC(=O)[C@@H](NC(=O)[C@@H](CC(C)C)N(C)C(=O)c2cc3ccccc3s2)[C@@H](C)OC(=O)[C@H](Cc2ccc(OC)cc2)N(C)C(=O)[C@@H]2CCCN2C(=O)[C@H](CC(C)C)NC(=O)[C@H](C(C)C)OC(=O)C[C@@H]1O | 0.1 µg/mL | - | nucleotide incorporation | - | ~0%
COc1cc(-c2oc3cc(O)cc(O)c3c(=O)c2O)ccc1O | 200 µg/mL | - | RT activity / ELISA | - | 56.99%
COc1cc(OC)nc(N2C(=O)CSC2c2c(Cl)ncnc2Cl)n1 | 10 µg/mL | - | RT activity / ELISA / absorbance | - | 33.18%
C[C@H]1[C@H](O)C(=O)CC2[C@]3(C)CC[C@@]4(C)C5CC(C)(C)CC[C@]5(C)CC[C@]4(C)C3CC[C@@]21C | 200 µg/mL | - | RT activity / radiometric | - | 11.35%
C1CCNCCNCCCNCCNC1 | 17.5 µM | - | - | - | 100%
O=C1CSC(c2c(Cl)ncnc2Cl)N1c1nc(Cl)cc(Cl)n1 | 10 µg/mL | - | RT activity / ELISA / absorbance | - | 20.73%
O=C(O)/C=C/c1ccc(O)cc1 | 200 µg/mL | - | RT activity / ELISA | - | 17.88%
CCN1c2ncccc2C=Cc2cccnc21 | 1 µM | RT-P236 | nucleotide incorporation | - | 98%
CCN1c2ncc(COc3cc[n+]([O-])c(C(F)(F)F)c3)cc2C(=O)N(C)c2ccc(Cl)nc21 | 1 µM | RT-Y181C | nucleotide incorporation / radiometric | - | 89%
CCCN1C(=O)c2cccnc2Oc2ccccc21 | 1 µM | - | HPLC | - | 31%
Cc1cn([C@H]2CC[C@@H](COP([O-])(=S)OP(=O)(O)C(F)(F)P(=O)(O)O)O2)c(=O)[nH]c1=O | 0.5 µM | - | fluorescence | - | 20.7%
O=C1CSC(c2c(Cl)cncc2Cl)N1n1cnnc1 | 100 µg/mL | - | RT activity / ELISA / absorbance | - | 62.03%
O=c1c(O)c(-c2ccc(O)c(O)c2)oc2cc(O)c(O)c(O)c12 | 2 µg/mL | - | nucleotide incorporation | - | 90%
COc1cc2c(O[C@@H]3O[C@H](CO)[C@@H](O)[C@H](O)[C@H]3O)c(CO)c(CO)c(-c3ccc4c(c3)OCO4)c2cc1OC | 200 µM | - | nucleotide incorporation / radiometric | - | 0%
O=C1CSC(c2c(Cl)ncnc2Cl)N1c1ncccn1 | 100 µg/mL | - | RT activity / ELISA / absorbance | - | 56.93%
Cc1cn([C@H]2C[C@H](N)[C@@H](COP([O-])(=S)OP(=O)(O)C(F)(F)P(=O)(O)O)O2)c(=O)[nH]c1=O | 0.5 µM | - | fluorescence | - | 13.2%
C[C@@H]1[C@H](O)[C@@H](C)/C=C/C=C/C=C/C=C/C=C/C=C/C=C/[C@H](O[C@@H]2O[C@H](C)[C@@H](O)[C@H](N)[C@@H]2O)CC2O[C@](O)(CC(O)C(O)CCC(O)CC(O)CC(O)CC(=O)O[C@H]1C)CC(O)C2C(=O)O.O=S(=O)(O)O | 1000 µg/mL | - | RT activity | - | 98.8%
CC(C)=CCc1c2c(c(O)c3c1O[C@@]14C(=C[C@H]5CC1C(C)(C)O[C@]4(C/C=C(\C)C=O)C5=O)C3=O)C=CC(C)(C)O2 | 200 µg/mL | - | nucleotide incorporation / radiometric | - | 49.5%
CCc1c(Sc2ccccn2)n(COCc2ccccc2)c(=O)[nH]c1=O | 50 µM | RT-Y188H | - | - | 75%
O=C(O[C@@H]1OC2CC(=O)c3cc(O)c(O)c(O)c3-c3c(cc(O)c(O)c3O)C(=O)OC2C2OC(=O)c3cc(O)c(O)c(O)c3-c3c(cc(O)c(O)c3O)C(=O)OC21)c1cc(O)c(O)c(O)c1 | 20 µg/mL | - | nucleotide incorporation | - | 3%
Nc1ccn([C@@H]2CS[C@H](COP(=O)(O)OP(=O)(O)C(F)(F)P(=O)(O)O)O2)c(=O)n1 | 0.5 µM | - | fluorescence | - | 37.1%
CC(C)=CCC/C(C)=C/C[C@]12C=C3C(=O)c4c(O)cc(O)c(CC=C(C)C)c4O[C@]34C(C1)C(C)(C)O[C@]4(CC=C(C)C)C2=O | 200 µg/mL | - | nucleotide incorporation / radiometric | - | 95.4%
COc1cc2c3cc1Oc1c(OC)c(OC)cc4c1[C@@H](Cc1cccc(c1)Oc1ccc(c(O)c1)C[C@@H]3N(C)CC2)N(C)CC4 | 500 µg/mL | - | - | LAV | 40.29%
O=c1c2cc(O)ccc2oc2cc(O)cc(O)c12 | 200 µg/mL | - | RT activity / radiometric | - | -27.67%
Nc1cccnc1N1CCN(C(=O)c2cc3ccccc3[nH]2)CC1 | 100 µM | - | nucleotide incorporation | - | 73%
COc1cccc2c1cc([N+](=O)[O-])c1c(C(=O)O)cc3c(c12)OCO3 | 500 µg/mL | - | - | LAV | 52.29%
CC1Oc2cc(O)c3c(=O)c4ccc(O)c(O)c4oc3c2C1(C)C | 200 µg/mL | - | RT activity / radiometric | - | 85.11%
Nc1nc(Cl)c2ncn([C@H]3C=C[C@@H](COP([O-])(=S)OP(=O)(O)C(F)(F)P(=O)(O)O)C3)c2n1 | 10 µM | - | fluorescence | - | 3.9%
CCN1c2ncc(Cc3cccc(O)c3)cc2C(=O)N(C)c2ccc(Cl)nc21 | 1 µM | - | nucleotide incorporation / radiometric | WT | 97%
COC(=O)C(N)CC(=O)COC(=O)[C@H]1O[C@H](O[C@H]2CC[C@]3(C)[C@H]4C(=O)C=C5[C@@H]6C[C@@](C)(C(=O)O)CC[C@]6(C)CC[C@@]5(C)[C@]4(C)CC[C@H]3C2(C)C)[C@H](O[C@@H]2O[C@H](C(=O)O)[C@@H](O)[C@H](O)[C@H]2O)[C@@H](O)[C@@H]1O.S | 500 µg/mL | - | - | - | 62.91%
Nc1nc2c(ncn2[C@H]2C=C[C@@H](COP([O-])(=S)OP(=O)(O)C(F)(F)P(=O)(O)O)C2)c(=O)[nH]1 | 10 µM | - | fluorescence | - | 0%
CCN1c2ncc(CNc3cccc([N+](=O)[O-])c3)cc2C(=O)N(C)c2ccc(Cl)nc21 | 1 µM | - | nucleotide incorporation / radiometric | WT | 86%

Repeating the final 3 entries:

| smiles | tested at | changes | read by | strain or isolate | value |
|---|---|---|---|---|---|
| COC(=O)C(N)CC(=O)COC(=O)[C@H]1O[C@H](O[C@H]2CC[C@]3(C)[C@H]4C(=O)C=C5[C@@H]6C[C@@](C)(C(=O)O)CC[C@]6(C)CC[C@@]5(C)[C@]4(C)CC[C@H]3C2(C)C)[C@H](O[C@@H]2O[C@H](C(=O)O)[C@@H](O)[C@H](O)[C@H]2O)[C@@H](O)[C@@H]1O.S | 500 µg/mL | - | - | - | 62.91% |
| Nc1nc2c(ncn2[C@H]2C=C[C@@H](COP([O-])(=S)OP(=O)(O)C(F)(F)P(=O)(O)O)C2)c(=O)[nH]1 | 10 µM | - | fluorescence | - | 0% |
| CCN1c2ncc(CNc3cccc([N+](=O)[O-])c3)cc2C(=O)N(C)c2ccc(Cl)nc21 | 1 µM | - | nucleotide incorporation / radiometric | WT | 86% |